The target of this assay is SARS-CoV-2 spike protein on spike pseudotyped lentivirus particles or authentic SARS-CoV-2 (SARS-CoV-2) (UniProt P0DTC2). The assay is described as follows: cell-based or functional assay.

Substance Wild-type ACE2(740)-Fc (Fc fusion) returned an IC50 (µg/ml), pseudovirus of 0.71 µg/mL.

Source of the values: patent US20230257726A1.
